Measurements reported in PMC7438161.
For at least one entry, the source does not settle the construct or the ends of the probe. At least one verdict was read from the data and is not stated in words by the source.

Target: nsp9 (SARS-CoV-2) (UniProt P0DTD1)
Experiment: EMSA
Conditions: 10 mM HEPES pH 8.0, 50 mM KCl, 1 mM EDTA, 0.05% Triton X-100, 5% glycerol, 30 min at 4 °C, recombinant protein, protein details: His-SUMO tag removed with Ulp1, label: 5'-FAM

Sequence	binding result (single-stranded DNA)	binding result
GCTTTGATTTCG [12-mer ssDNA]	binds	
GCTTTGATTTCGTGCATCTATGGAGC [26-mer ssDNA]	binds	
GCUUUGAUUUCG [12-mer ssRNA]		binds
GCUUUGAUUUCGUGCAUCUAUGGAGC [26-mer ssRNA]		binds
